Anti-infective test results gathered from many reports (values: NIAID ChemDB through PubChem).

All rows: growth or infection tests; agent: Cryptococcus neoformans

ECn is the concentration giving n% inhibition of infection, replication or growth. An empty or dashed field is not shown. Lines come from different laboratories, so protocols vary. MIC50, MIC90 and the like: level of inhibition, or share of isolates inhibited.

smiles | read by | measure | strain | result
C[C@H]1[C@H](O)[C@@H](C)/C=C/C=C/C=C/C=C/C=C/C=C/C=C/[C@H](O[C@@H]2O[C@H](C)[C@@H](O)[C@H](N)[C@@H]2O)C[C@@H]2O[C@](O)(C[C@@H](O)C[C@@H](O)CC[C@H](O)[C@@H](O)C[C@@H](O)CC(=O)O[C@H]1C)C[C@H](O)[C@H]2C(=O)O | broth dilution / turbidity | MIC | ATCC 32264 | 0.24 µg/mL
COc1cc(CC=C(C)C)c([C@H]2Oc3c(CC=C(C)C)c(OC)cc(O)c3C(=O)[C@@H]2O)c(CC=C(C)C)c1O | - | MIC | ATCC 32264 | >100 µg/mL
N=C(N)c1ccc(OCCCC2CCN(CCCOc3ccc(C(=N)N)cc3)CC2)cc1 | - | MIC | ATCC90112 | 0.0313 µg/mL
CC(C)(N)CNCc1ccc(-c2csc(-c3ccc(Cl)cc3)n2)cc1 | - | MIC50 | - | 8 µg/mL
CCCCCCCCC[C@@H]1NC(=O)[C@H](CC(C)(C)C)NC(=O)[C@H](CCCN)NC(=O)CNC(=O)C1(F)F | - | MIC | - | 4 µg/mL
CN(C)CCCNCc1ccc(-c2csc(-c3ccc(Cl)cc3)n2)cc1 | - | MIC50 | - | 1 µg/mL
COc1cc2ccnc3c2c(c1OC(=O)c1cccc(C)c1)N(C)C=C3 | - | MIC | - | 20 µg/mL
CC1CC(=O)N(Cc2ccccc2)C1=O | broth dilution / turbidity | MIC | ATCC 32264 | 62.5 µg/mL
Cc1ccc2sn(NS(=O)(=O)c3ccc(N)cc3)c(=O)c2c1 | - | MIC | - | >100 µg/mL
COC(=O)c1ccc(N2C(=O)C(OC(C)=O)C2c2ccccc2)cc1 | - | MIC | AH27/A | 73.74 µM
C[C@@H]1CC(=O)N(c2ccc([N+](=O)[O-])cc2)C1=O | broth dilution / turbidity | MIC | ATCC 32264 | 62.5 µg/mL
COc1cc2ccnc3c2c(c1OC(=O)c1ccccc1C)N(C)C=C3 | - | EC50 | - | 15 µg/mL
O=C(C(=C1SCCCS1)n1ccnc1)c1ccc(Cl)cc1 | - | MIC | - | >100 µg/mL
CCC(C)CC(C)CCCCCCCCC(=O)N[C@H]1C[C@@H](O)[C@H](NCCN)NC(=O)[C@@H]2[C@@H](O)CCN2C(=O)[C@H]([C@H](O)CCN)NC(=O)[C@H]([C@H](O)[C@@H](O)c2ccc(O)cc2)NC(=O)[C@@H]2C[C@@H](O)CN2C(=O)[C@H]([C@@H](C)O)NC1=O | - | Geometric mean MIC | 12 strains | 32 µg/mL
CC(=O)OC1C(=O)N2CCCS(=O)C12c1ccccc1 | - | MIC | AH27/A | 5.11 µM
Oc1ccccc1N=Cc1ccccc1 | broth dilution | MIC | LMM 820 | 5.7 µg/mL
C[C@@H]1CC(=O)N(c2ccc(F)cc2F)C1=O | broth dilution / turbidity | MIC | ATCC 32264 | 62.5 µg/mL
Oc1ccccc1N=Cc1cccc(O)c1O | broth dilution | MIC | GM | 3.6 µg/mL
COc1cc(O)c2c(c1)C(=O)c1c(cc3c(c1O)-c1c(cc(C)c(C(=O)N[C@H](CO)C(=O)O)c1O)[C@H](OC1OC(C)C(N)C(OC4OCC(O)C(O)C4O)C1O)[C@H]3O)C2=O | - | MIC | D49 | 0.8 µg/mL
CCCCCCCCCC[C@H]1NC(=O)[C@H](CC(C)(C)C)NC(=O)[C@H](CCCCN)NC(=O)CNC(=O)[C@H]1O | - | MIC | - | 4 µg/mL
COc1cc(OC)c2c(c1CC=C(C)C)O[C@H](c1c(CC=C(C)C)cc(OC)c(OC)c1CC=C(C)C)[C@@H](O)C2=O | - | MIC | ATCC 32264 | >100 µg/mL
CCOC(=O)/C(=C1/SCCC(C)S1)n1ccnc1 | - | MIC | - | >100 µg/mL
O=[N+]([O-])c1ccc(C=Nc2ccccc2O)cc1 | - | MIC99 | ATCC 62066 | 2.8 µg/mL
C[C@@H]1C(=O)N(Cc2ccccc2)C(=O)[C@@H]1C | broth dilution / turbidity | MIC | ATCC 32264 | 62.5 µg/mL
CC1=C2C3=C4[C@](C)([C@@H]5C[C@@H]5[C@@]4(O)C[C@@H]4[C@]35OC(=O)C3=C5C[C@H]5[C@](O)(COC(=O)/C(C)=C/COC(=O)CCC(=O)OC3)[C@H]3C[C@H]3[C@]45C)[C@@H](O)[C@]2(O)OC1=O | broth dilution | MIC | ATCC 22402 | 128 µg/mL
COC(=O)c1ccc(N2C(=O)C(OC(C)=O)C2c2ccc(C)cc2)cc1 | - | MIC | AH27/A | 70.82 µM
COc1cc2ccnc3c2c(c1OC(=O)c1ccc(OC(F)(F)F)cc1)N(C)C=C3 | - | EC50 | - | 6.5 µg/mL
C[C@@H]1C(=O)N(c2ccccc2)C(=O)[C@@H]1C | broth dilution / turbidity | MIC | ATCC 32264 | 62.5 µg/mL
CC(CCC(=O)NCCCNCCCCNCCCN)[C@H]1CCC2C3CC[C@@H]4C[C@H](OS(=O)(=O)O)CC[C@]4(C)C3C[C@H](C)[C@@]21C | - | MIC | M68979 | 50 µg/mL
Nc1[nH]c(=O)ncc1F | - | Mean MIC | 42 isolates (HIV+) | 2.06 µg/mL
CN[C@@H]1[C@H](O[C@@H]2O[C@H](CO)[C@@H](O)[C@H](S(=O)(=O)O)[C@H]2O)[C@@H](O)[C@H](O[C@H]2c3cc(C)c(C(=O)N[C@H](CO)C(=O)O)c(O)c3-c3c(cc4c(c3O)C(=O)c3cc(OC)cc(O)c3C4=O)[C@@H]2O)O[C@@H]1C | - | MIC | IAM 4514 | 6.3 µg/mL
CCCCCCCCC[C@@H]1CC(=O)NCC(=O)N[C@@H](CCCCN)C(=O)N[C@@H](CC(C)(C)C)C(=O)N1 | - | MIC | - | 8 µg/mL
O/N=C/c1cc[n+](Cc2cc(C[n+]3ccc(/C=N/O)cc3)on2)cc1.[Br-].[Br-] | broth dilution | EC50 | - | >20 µg/mL
COc1cc2ccnc3c2c(c1OC(=O)c1ccc(C)cc1)N(C)C=C3 | - | EC50 | - | 10 µg/mL
Oc1ccccc1N=Cc1ccc(F)cc1 | - | MIC99 | VM-MCMMPI | 8 µg/mL
O/N=C/c1cccc[n+]1Cc1ccc(C[n+]2ccccc2/C=N/O)s1.[Cl-].[Cl-] | broth dilution | EC50 | - | >20 µg/mL
CCCCCOc1ccc(-c2cc(-c3ccc(C(=O)N[C@H]4C[C@@H](O)[C@@H](O)NC(=O)[C@@H]5[C@@H](O)[C@@H](C)CN5C(=O)[C@H]([C@H](O)CC(N)=O)NC(=O)[C@H]([C@H](O)[C@@H](O)c5ccc(O)c(OS(=O)(=O)O)c5)NC(=O)[C@@H]5C[C@@H](O)CN5C(=O)[C@H]([C@@H](C)O)NC4=O)cc3)no2)cc1 | broth dilution | EC50 | H99 | >2 µg/mL
CC1=C2C3=C4[C@@](C)(C(=O)[C@]2(O)OC1=O)[C@@H]1C[C@@H]1[C@@]4(O)C[C@@H]1[C@]32OC(=O)C3=C2C[C@H]2[C@](O)(COC(=O)/C(C)=C/COC(=O)CCC(=O)OC3)[C@H]3C[C@H]3[C@]12C | broth dilution | MIC | ATCC 22402 | 64 µg/mL
COc1cc2ccnc3c2c(c1OC(=O)c1ccc(CCl)cc1)N(C)C=C3 | - | EC50 | - | >15 µg/mL
C/C1=C\C(=O)c2c(C)coc2C/C(C)=C/CC1 | broth dilution | MIC | ATCC 22402 | 128 µg/mL
CCN(CC)C(=O)Oc1c(OC)cc2ccnc3c2c1N(C)C=C3 | - | EC50 | - | >15 µg/mL
CC1CCS/C(=C(/C#N)n2cnc3ccccc32)S1 | - | MIC | - | >100 µg/mL
O/N=C/c1cc[n+](Cc2ccc(C[n+]3ccc(/C=N/O)cc3)s2)cc1.[Cl-].[Cl-] | broth dilution | EC50 | - | >20 µg/mL
Oc1ccccc1N=Cc1ccc2c(c1)OCO2 | broth dilution | MIC | F-10 | 11.3 µg/mL
CCCCCCCCC[C@@H]1CC(=O)NCC(=O)N[C@@H](CCCCN)C(=O)N[C@@H](CC(C)C)C(=O)N1 | - | MIC | - | 4 µg/mL
COc1cc2ccnc3c2c(c1OC(=O)c1ccc(C#N)cc1)N(C)C=C3 | - | EC50 | - | >15 µg/mL
CO[C@@]12OC(=O)C(C)=C1C1=C3[C@](C)([C@@H]4C[C@@H]4[C@@]3(O)C[C@@H]3[C@]14OC(=O)C1=C4C[C@H]4[C@](O)(COC(=O)/C(C)=C/COC(=O)CCC(=O)OC1)[C@H]1C[C@H]1[C@]34C)[C@H]2O | broth dilution | MIC | ATCC 22402 | 128 µg/mL
NC(=O)c1cc[n+](Cc2ccc(C[n+]3ccc(C(N)=O)cc3)o2)cc1.[Br-].[Br-] | broth dilution | EC50 | - | >20 µg/mL
C[C@@H]1CC(=O)N(c2ccc(Br)cc2)C1=O | broth dilution / turbidity | MIC | ATCC 32264 | 62.5 µg/mL
CCOC(=O)c1c(C)nc(NCCCCNc2ccnc3cc(Cl)ccc23)nc1-c1ccccc1 | - | MIC99 | LMM 820 | 8 µg/mL
C[C@@H]([C@H](N)C(=O)N[C@H](C(=O)O)[C@H]1O[C@@H](n2ccc(=O)[nH]c2=O)[C@H](O)[C@@H]1O)[C@H](O)c1ccc(O)cn1 | - | Geometric mean MIC | 38 isolates | 127 µg/mL
CCOC(=O)c1c(C)nc(NCCCNc2ccnc3cc(Cl)ccc23)nc1-c1ccccc1 | - | MIC99 | WP | 5.7 µg/mL
NC(=O)c1cc[n+](CCC[n+]2cccc(/C=N/O)c2)cc1.[Br-].[Br-] | broth dilution | EC50 | - | >20 µg/mL
Oc1ccccc1C=Nc1ccccc1O | broth dilution | MIC | 28JF | 11.3 µg/mL
CC[C@@H]([C@H](C)O)n1ncn(-c2ccc(N3CCN(c4ccc(OC[C@@H]5CO[C@@](Cn6cncn6)(c6ccc(F)cc6F)C5)cc4)CC3)cc2)c1=O | - | Geometric mean MIC | 9 strains | 0.25 µg/mL

The last 8 rows once more:

smiles | read by | measure | strain | result
NC(=O)c1cc[n+](Cc2ccc(C[n+]3ccc(C(N)=O)cc3)o2)cc1.[Br-].[Br-] | broth dilution | EC50 | - | >20 µg/mL
C[C@@H]1CC(=O)N(c2ccc(Br)cc2)C1=O | broth dilution / turbidity | MIC | ATCC 32264 | 62.5 µg/mL
CCOC(=O)c1c(C)nc(NCCCCNc2ccnc3cc(Cl)ccc23)nc1-c1ccccc1 | - | MIC99 | LMM 820 | 8 µg/mL
C[C@@H]([C@H](N)C(=O)N[C@H](C(=O)O)[C@H]1O[C@@H](n2ccc(=O)[nH]c2=O)[C@H](O)[C@@H]1O)[C@H](O)c1ccc(O)cn1 | - | Geometric mean MIC | 38 isolates | 127 µg/mL
CCOC(=O)c1c(C)nc(NCCCNc2ccnc3cc(Cl)ccc23)nc1-c1ccccc1 | - | MIC99 | WP | 5.7 µg/mL
NC(=O)c1cc[n+](CCC[n+]2cccc(/C=N/O)c2)cc1.[Br-].[Br-] | broth dilution | EC50 | - | >20 µg/mL
Oc1ccccc1C=Nc1ccccc1O | broth dilution | MIC | 28JF | 11.3 µg/mL
CC[C@@H]([C@H](C)O)n1ncn(-c2ccc(N3CCN(c4ccc(OC[C@@H]5CO[C@@](Cn6cncn6)(c6ccc(F)cc6F)C5)cc4)CC3)cc2)c1=O | - | Geometric mean MIC | 9 strains | 0.25 µg/mL